Anti-infective test results gathered from many reports (values: NIAID ChemDB through PubChem).

All rows: whole-cell or culture tests; species: Aspergillus fumigatus

Blank or dashed fields: not listed here.

| compound | strain or isolate | endpoint | setting | method | value |
|---|---|---|---|---|---|
| CCOC(=O)C1C(c2cc3ccccc3nc2Cl)C2=C(CCCC2=O)N(c2cccnc2)C1N | MTCC 3008 | MIC99 |  | broth dilution | 500 µg/mL |
| CCC1/C=C/C=C/C=C/C=C/C(OC2OC(C)C(O)C(N)C2O)CC2OC(O)(CC(O)CC(O)C(O)/C=C/C(=O)OC1C)CC(O)C2C(=O)O | CGMCC 3.3552 | MFC |  | broth dilution | 12.56 µg/mL |
| Cc1ccc(-c2cc(C=O)no2)cc1 | Clinical isolates | EC50 |  |  | 49.86 µg/mL |
| N=C(N)c1ccc(OCCCCCCOc2ccc(C(=N)N)cc2)cc1 |  | MIC |  | agar diffusion / agar | 35 µg/mL |
| C[C@H]1[C@H](O)[C@@H](C)/C=C/C=C/C=C/C=C/C=C/C=C/C=C/[C@H](O[C@@H]2O[C@H](C)[C@@H](O)[C@H](N)[C@@H]2O)C[C@@H]2O[C@](O)(C[C@@H](O)C[C@@H](O)CC[C@H](O)[C@@H](O)C[C@@H](O)CC(=O)O[C@H]1C)C[C@H](O)[C@H]2C(=O)O | 3 clinical isolates | MIC90 |  |  | 2 µg/mL |
| C[C@@H](c1nc(-c2ccc(C#N)cc2)cs1)[C@](O)(Cn1cncn1)c1ccc(F)cc1F | 314 isolates | MIC90 |  |  | 1 µg/mL |
| CCCCS(=O)(=O)C(F)(F)[C@](O)(Cn1cncn1)c1ccc(F)cc1F | IFM 40808 | MIC |  |  | 8 µg/mL |
| CCC(C)CCCCCCC1CC(=O)NCC(=O)N[C@@H](CCCN)C(=O)N[C@@H](C(C)CC)C(=O)N1 | IFM41088 | MIC |  |  | >80 µg/mL |
| O=C1CSC(c2c(F)cccc2F)N1c1ncc(-c2cc3ccccc3oc2=O)o1 | HIC 6094 | MIC |  | broth dilution | 32 µg/mL |
| CCC(C)n1ncn(-c2ccc(N3CCN(c4ccc(OC[C@H]5CO[C@](Cn6cncn6)(c6ccc(Cl)cc6Cl)O5)cc4)CC3)cc2)c1=O | 35 isolates | MFC50 |  |  | 16 µg/mL |
| CCS[C@H](C)[C@](O)(Cn1cncn1)c1ccc(F)cc1F | MTU6001 | MIC |  |  | 12.5 µg/mL |
| Cc1ccc(C(C)C)cc1 | F17 | MLC |  |  | >20 µg/mL |
| CCCCCCCCCCS[C@H](C)[C@](O)(Cn1cncn1)c1ccc(F)cc1F | MTU6001 | MIC |  |  | 25 µg/mL |
| Cc1onc(-c2ccc(Cl)cc2Cl)c1C=O | Clinical isolates | MIC |  |  | 25 µg/mL |
| COC(=O)C1C(c2cc3cc(OC)ccc3nc2Cl)C2=C(CCCC2=O)N(c2cccnc2)C1N | MTCC 3008 | MIC99 |  | broth dilution | >1000 µg/mL |
| Oc1ccc(-c2n[nH]c(COc3nc(C(F)(F)F)nc4ccccc34)n2)cc1 | MTCC 343 | MIC100 |  |  | 50 µg/mL |
| C[C@@H](N1CCN(Cc2cn(Cc3ccc(F)cc3F)c3ccc(C#N)cc23)CC1)[C@](O)(Cn1cncn1)c1ccc(F)cc1F | ATCC 16424 | MIC80 |  | resazurin | 1 µg/mL |
| O=c1c(N2CCOCC2)c(N2CCN(S(=O)(=O)Cc3ccccc3)CC2)cnn1-c1ccccc1 | ND158 | MIC |  | broth dilution | 12.5 µg/mL |
| O=C1CSC(c2ccc([N+](=O)[O-])cc2)N1c1ncc(-c2cc3ccccc3oc2=O)o1 | HIC 6094 | MIC |  | broth dilution | 18 µg/mL |
| Nc1[nH]c(=O)ncc1F | 4 strains | MIC |  |  | 4–32 µg/mL |
| Oc1ccc(CCN=C=S)cc1 | Rit 1 | MIC |  | visual reading | 4 µg/mL |
| O=C1CSC(c2ccc(Cl)cc2)N1c1ncc(-c2cc3ccccc3oc2=O)o1 | HIC 6094 | MIC |  | broth dilution | 36 µg/mL |
| N#CC1C(c2cc3cc(Cl)ccc3nc2Cl)C2=C(CCCC2=O)N(c2cccnc2)C1N | MTCC 3008 | MIC99 |  | broth dilution | 500 µg/mL |
| C[C@@H](SCCCCCCCC(N)=O)[C@](O)(Cn1cncn1)c1ccc(F)cc1F | MTU6001 | MIC |  |  | 1.56 µg/mL |
| COC(=O)C1C(c2cc3ccccc3nc2Cl)C2=C(CCCC2=O)N(c2cccnc2)C1N | MTCC 3008 | MIC99 |  | broth dilution | 1000 µg/mL |
| CC(O)Cc1ccc(Cn2cc(CN3CCN([C@H](C)[C@](O)(Cn4cncn4)c4ccc(F)cc4F)CC3)c3cccc(F)c32)cc1 | ATCC 16424 | MIC80 |  | resazurin | >128 µg/mL |
| Cc1nc(OCc2nc(-c3cccs3)n[nH]2)c2ccccc2n1 | MTCC 343 | MIC100 |  |  | 12.5 µg/mL |
| C[C@H]1[C@H](O)[C@@H](C)/C=C/C=C/C=C/C=C/C=C/C=C/C=C/[C@H](O[C@@H]2O[C@H](C)[C@@H](O)[C@H](N)[C@@H]2O)C[C@@H]2O[C@](O)(C[C@@H](O)C[C@@H](O)CC[C@H](O)[C@@H](O)C[C@@H](O)CC(=O)O[C@H]1C)C[C@H](O)[C@H]2C(=O)O | 17 isolates | MIC90 |  |  | 2 µg/mL |
| COC(=O)C1C(c2cc3cc(C)ccc3nc2Cl)C2=C(CCCC2=O)N(c2cccnc2)C1N | MTCC 3008 | MIC99 |  | broth dilution | >1000 µg/mL |
| C[C@@H](N1CCN(Cc2c[nH]c3ccccc23)CC1)[C@](O)(Cn1cncn1)c1ccc(F)cc1F | ATCC 16424 | MIC80 |  | resazurin | 64 µg/mL |
| FC(F)(F)c1nc(OCc2nc(-c3ccco3)n[nH]2)c2ccccc2n1 | MTCC 343 | MIC100 |  |  | 25 µg/mL |
| COc1cc2ccnc3c2c(c1OC(=O)c1ccc(C)cc1)N(C)C=C3 |  | EC50 |  |  | >15 µg/mL |
| COc1cc(-c2n[nH]c(COc3ncnc4ccccc34)n2)cc(OC)c1OC | MTCC 343 | MIC100 |  |  | 6.25 µg/mL |
| COc1cc2ccnc3c2c(c1OC(=O)c1ccc(F)cc1)N(C)C=C3 |  | EC50 |  |  | >15 µg/mL |
| N#CC1C(c2cc3ccccc3nc2Cl)C2=C(CCCC2=O)N(c2cccnc2)C1N | MTCC 3008 | MIC99 |  | broth dilution | >1000 µg/mL |
| COc1cc2ccnc3c2c(c1OC(=O)CSc1ccccc1)N(C)C=C3 |  | EC50 |  |  | >15 µg/mL |
| CC(C)CCCCCCCCCC1CC(=O)NCC(=O)N[C@@H](CCCCN)C(=O)N[C@@H](C(C)C)C(=O)N1 | IFM41088 | MIC |  |  | >80 µg/mL |
| CCCCCCCCCS(=O)(=O)[C@H](C)[C@](O)(Cn1cncn1)c1ccc(F)cc1F | MTU6001 | MIC |  |  | ≤0.2 µg/mL |
| Brc1ccc(-c2n[nH]c(COc3ncnc4ccccc34)n2)cc1 | MTCC 343 | MIC100 |  |  | 25 µg/mL |
| CCCCCc1ccc(C(=O)Oc2c(OC)cc3ccnc4c3c2N(C)C=C4)cc1 |  | EC50 |  |  | 10 µg/mL |
| CCN1CCC(O)(/C=C/c2ccc(Cl)cc2)C(C(=O)/C=C/c2ccc(Cl)cc2)C1 | 20 strains | Mean MIC |  |  | 11.87 µM |
| CC1S[C@H](c2ccccc2)N(c2nc(N3CCOCC3)n[nH]2)C1=O | 168.95 | MIC |  | broth dilution | 100 µg/mL |
| CCCCCCCC/C=C\CCCCCCCC(=O)N[C@H](C(=O)N1C[C@H](C)C[C@H]1C(=O)N[C@H](C(=O)N[C@@H](CCO)C(=O)N[C@@H](C)CO)C(C)C)[C@@H](C)O | MF5668 | MIC |  | broth dilution / visual reading | >32 µg/mL |
| Nc1[nH]c(=O)ncc1F | X807219 | MIC |  |  | 2 µg/mL |
| CN1CCN(c2n[nH]c(N3C(=O)CS[C@@H]3c3ccc4c(c3)OCO4)n2)CC1 | 168.95 | MIC80 |  | broth dilution | 10 µg/mL |
| C[C@@H](N1CCN(Cc2cn(Cc3cccc(C(F)(F)F)c3)c3ccccc23)CC1)[C@](O)(Cn1cncn1)c1ccc(F)cc1F | ATCC 16424 | MIC80 |  | resazurin | 8 µg/mL |
| CCCCCS(=O)(=O)[C@H](C)[C@](O)(Cn1cncn1)c1ccc(F)cc1F | MTU6001 | MIC |  |  | 12.5 µg/mL |
| CC1/C=C/C=C/C=C/C=C/C(O[C@@H]2O[C@H](C)[C@@H](O)[C@H](N)[C@@H]2O)CC2OC(O)(CC(O)CC(O)C(O)/C=C/C(=O)OC1C)CC(O)C2C(=O)O | CGMCC 3.3552 | MIC100 |  | broth dilution | 25 µg/mL |
| CCS(=O)(=O)C(F)(F)C(O)(Cn1cncn1)c1ccc(F)cc1F | IFM 40808 | MIC |  |  | 8 µg/mL |
| O=C1CSC(c2ccco2)N1c1ncc(-c2cc3ccccc3oc2=O)o1 | HIC 6094 | MIC |  | broth dilution | 25 µg/mL |
| C[C@@H](n1cnc2cc(Cl)ccc2c1=O)[C@](O)(Cn1cncn1)c1ccc(F)cc1F | 10 clinical isolates | MIC90 |  |  | 0.125 µg/mL |
| CCN1CCC(O)(/C=C/c2ccc(C)cc2)C(C(=O)/C=C/c2ccc(C)cc2)C1 | 20 strains | Mean MIC |  |  | 92.2 µM |
| C[C@@H](N1CCN(Cc2cn(Cc3ccc(Cl)cc3Cl)c3c(F)cccc23)CC1)[C@](O)(Cn1cncn1)c1ccc(F)cc1F | ATCC 16424 | MIC80 |  | resazurin | 8 µg/mL |
| C[C@@H](c1ncncc1F)[C@](O)(Cn1cncn1)c1ccc(F)cc1F | 314 isolates | MIC50 |  |  | 0.5 µg/mL |
| O=C1CSC(c2cccc([N+](=O)[O-])c2)N1c1ncc(-c2cc3ccccc3oc2=O)o1 | HIC 6094 | MIC |  | broth dilution | 20 µg/mL |
| C[C@H]1[C@H](O)[C@@H](C)/C=C/C=C/C=C/C=C/C=C/C=C/C=C/[C@H](O[C@@H]2O[C@H](C)[C@@H](O)[C@H](N)[C@@H]2O)C[C@@H]2O[C@](O)(C[C@@H](O)C[C@@H](O)CC[C@H](O)[C@@H](O)C[C@@H](O)CC(=O)O[C@H]1C)C[C@H](O)[C@H]2C(=O)O | NBRC 33022 | MIC | 48 h | broth dilution | 0.5 µg/mL |
| CC(C)S(=O)(=O)N1CCN(c2cnn(-c3cc(F)cc(F)c3)c(=O)c2OC2CCC(F)C2)CC1 | ND256 | MIC |  | broth dilution | 0.5 µg/mL |
| C[C@@H](N1CCN(Cc2cn(Cc3ccc(Cl)cc3)c3c(F)cccc23)CC1)[C@](O)(Cn1cncn1)c1ccc(F)cc1F | ATCC 16424 | MIC80 |  | resazurin | 16 µg/mL |
| C=CC(C)(O)CCCC(C)CCCC(C)CCCC(C)C | ATCC 16404 | MIC100 |  | broth dilution | 125 µg/mL |
| C[C@H]1[C@H](O)[C@@H](C)/C=C/C=C/C=C/C=C/C=C/C=C/C=C/[C@H](O[C@@H]2O[C@H](C)[C@@H](O)[C@H](N)[C@@H]2O)C[C@@H]2O[C@](O)(C[C@@H](O)C[C@@H](O)CC[C@H](O)[C@@H](O)C[C@@H](O)CC(=O)O[C@H]1C)C[C@H](O)[C@H]2C(=O)O | 48238 | MIC |  |  | 0.13 µg/mL |
| C[C@@H](N1CCN(Cc2cn(Cc3ccc(C(F)(F)F)cc3)c3ccccc23)CC1)[C@](O)(Cn1cncn1)c1ccc(F)cc1F | ATCC 16424 | MIC80 |  | resazurin | 2 µg/mL |
| Cc1onc(-c2ccccc2)c1C=O | Clinical isolates | MIC |  |  | 50 µg/mL |
| CS(=O)(=O)C(F)(F)[C@](O)(Cn1cncn1)c1ccc(F)cc1F | IFM 40808 | MIC |  |  | 8 µg/mL |
| O=Cc1cc(-c2ccccc2Br)no1 | Clinical isolates | MIC |  |  | 50 µg/mL |
| COC(/C=C/c1cccs1)=C1/C(=O)C=C(C)C1=O | ATCC 90906 | MFC |  |  | >20 µg/mL |
| C=CC(C)(O)CC/C=C(\C)CCC=C(C)C | ATCC 16404 | MIC100 |  | broth dilution | 62.5 µg/mL |
| COc1cc2ccnc3c2c(c1OC(=O)c1ccc(OC(F)(F)F)cc1)N(C)C=C3 |  | EC50 |  |  | >15 µg/mL |
| C[C@@H](N1CCN(Cc2cn(Cc3ccc(F)cc3F)c3cc(N=[N+]=[N-])ccc23)CC1)[C@](O)(Cn1cncn1)c1ccc(F)cc1F | ATCC 16424 | MIC80 |  | resazurin | 4 µg/mL |
| O=Cc1cc(-c2ccc([N+](=O)[O-])cc2)no1 | Clinical isolates | EC50 |  |  | >50 µg/mL |

7 of the rows above, restated:

compound	strain or isolate	endpoint	setting	method	value
C[C@H]1[C@H](O)[C@@H](C)/C=C/C=C/C=C/C=C/C=C/C=C/C=C/[C@H](O[C@@H]2O[C@H](C)[C@@H](O)[C@H](N)[C@@H]2O)C[C@@H]2O[C@](O)(C[C@@H](O)C[C@@H](O)CC[C@H](O)[C@@H](O)C[C@@H](O)CC(=O)O[C@H]1C)C[C@H](O)[C@H]2C(=O)O	3 clinical isolates	MIC90			2 µg/mL
CCN1CCC(O)(/C=C/c2ccc(Cl)cc2)C(C(=O)/C=C/c2ccc(Cl)cc2)C1	20 strains	Mean MIC			11.87 µM
O=C1CSC(c2cccc([N+](=O)[O-])c2)N1c1ncc(-c2cc3ccccc3oc2=O)o1	HIC 6094	MIC		broth dilution	20 µg/mL
COc1cc2ccnc3c2c(c1OC(=O)c1ccc(OC(F)(F)F)cc1)N(C)C=C3		EC50			>15 µg/mL
C[C@@H](SCCCCCCCC(N)=O)[C@](O)(Cn1cncn1)c1ccc(F)cc1F	MTU6001	MIC			1.56 µg/mL
C[C@@H](N1CCN(Cc2cn(Cc3ccc(F)cc3F)c3cc(N=[N+]=[N-])ccc23)CC1)[C@](O)(Cn1cncn1)c1ccc(F)cc1F	ATCC 16424	MIC80		resazurin	4 µg/mL
CCS[C@H](C)[C@](O)(Cn1cncn1)c1ccc(F)cc1F	MTU6001	MIC			12.5 µg/mL

ECn: concentration that inhibits the pathogen or its effect by n%. A number after MIC or MFC names an inhibition level or a share of isolates. a–b is a range or a potency band. Neighbouring rows are from separate reports.